System: Mtb K204
Type: cell-based, Mycobacterium tuberculosis

SMILES | overcoming KAN resistance in Mtb K204 (in words)
CN(c1ccccc1)S(=O)(=O)c1ccc2[nH]c(=O)c(=O)[nH]c2c1 [Compound 33] | did not overcome KAN resistance
CCc1cccc(N(C)S(=O)(=O)c2ccc3[nH]c(=O)c(=O)[nH]c3c2)c1 [Compound 42] | did not produce compounds capable of overcoming KAN resistance
CN(c1cccc(C(C)(C)C)c1)S(=O)(=O)c1ccc2[nH]c(=O)c(=O)[nH]c2c1 [Compound 45] | did not produce compounds capable of overcoming KAN resistance

Source: US10208000B2, “Eis inhibitors” (priority 2015, dated 2019)
